Literature values in article PMC5557986 (Scientific Reports, 2017).

System: NA with His275Tyr substitution
Conditions: cited from earlier work

| Compound | resistance conferred by His275Tyr substitution |
| --- | --- |
| peramivir | moderate resistance |
| CCOC(=O)C1=C[C@@H](OC(CC)CC)[C@H](NC(C)=O)[C@@H](N)C1 [oseltamivir] | high level of resistance |
